A mixed list of measured activities; the numbers were collected in NIAID ChemDB.

All rows: tests in culture; agent: HIV-1; read-out: EC50

Conditions beyond the fields shown may differ between rows.

structure,cell line,strain,mutations,method,result
CC(C)=CCOc1cc(NC(=S)c2ccoc2C)ccc1Cl,CEM + CEM-SS,NL4-3,RT-Y181C,cytopathic effect / XTT,0.08 µM
COc1ccc(N(C)C(=O)[C@H](Cc2cc(F)cc(F)c2)NC(=O)CN2c3ccccc3N(CC(=O)N[C@@H](Cc3cc(F)cc(F)c3)C(=O)N(C)c3ccc(OC)c(F)c3)S2(=O)=O)cc1F,MT-2,NL4-3,-,luciferase,0.04 µM
CCCC(C(=O)O)c1c(C)nc2ccc(Br)cc2c1-c1ccc(Cl)cc1,C8166,-,-,luciferase / reporter gene,<20 µM
COc1ccc(S(=O)(=O)N(CC(O)CN(CCc2ccccc2)S(=O)(=O)c2ccccc2)CC2CCCC2)cc1,CEM,IIIB,-,p24,<1 µM
COc1cc(Cl)ccc1OCCNc1ccc(-c2cnc(C)c([C@H](OC(C)(C)C)C(=O)O)c2N2CCC(C)(C)CC2)nc1,MT-2,NL4-3,-,luminescence,0.002 µM
CC(C)C1=C2[C@H]3CC[C@@H]4[C@@]5(C)CC[C@H](OC(=O)[C@H]6C[C@@H](C(=O)O)C6(C)C)C(C)(C)[C@@H]5CC[C@@]4(C)[C@]3(C)CC[C@@]2(CC(=O)NC(F)(CN)CNC(=O)c2ccc(Cl)cc2)CC1=O,MT-2,92HT599,-,p24 / ELISA,<1 µM
NS(=O)(=O)c1ccc(NC(=O)c2ccccc2CSc2ccccc2C(=O)Nc2ccc(S(N)(=O)=O)cc2)cc1,CEM,-,-,XTT,>100 µM
Cc1nc2ccc(Cl)cc2c(-c2ccc3c(c2)OCO3)c1C(OC(C)C)C(=O)O,C8166,-,-,luciferase / reporter gene,<20 µM
C=C(C)[C@@H]1CC[C@]2(C(=O)NCCCCCCCC(=O)N[C@@H](CC(C)C)[C@@H](O)CC(=O)O)CC[C@]3(C)[C@H](CC[C@@H]4[C@@]5(C)CC[C@H](O)C(C)(C)[C@@H]5CC[C@]43C)[C@@H]12,H9,IIIB,-,p24 / RT activity,0.03 µM
C[C@H](Cn1cnc2c(N)ncnc21)OCP(=O)(O)O,MT-2,Clinical isolate,K103N/Y188L,recombinant virus assay,0.0028 µM
COc1ccc(N(C)C(=O)[C@H](Cc2ccccc2)NC(=O)NS(=O)(=O)N[C@@H](Cc2ccc(F)cc2)C(=O)N(C)C)cc1,MT-2,NL4-3,-,luciferase,2.67 µM
COc1ccc(S(=O)(=O)N(CC(C)C)C[C@@H](O)CCN(CC2CCCC2)S(=O)(=O)Cc2cccc3n[nH]nc23)cc1,CEM,IIIB,-,p24,<1 µM
CC(C)=CCOc1cc(NC(=S)c2ccsc2C)ccc1Cl,CEM + CEM-SS,NL4-3 (RT L100I),RT-L100I,cytopathic effect / XTT,0.2 µM
CC(C)C1=C2[C@H]3CC[C@@H]4[C@@]5(C)CC[C@H](OC(=O)[C@H]6C[C@@H](C(=O)O)C6(C)C)C(C)(C)[C@@H]5CC[C@@]4(C)[C@]3(C)CC[C@@]2([C@@H](O)CNCC(C)(C)NC(=O)CN2CCOCC2)CC1=O,MT-2,92HT599,-,p24 / ELISA,<1 µM
C[C@H]1CO[C@@H]2Cn3cc(C(=O)NCc4ccc(F)cc4F)c(=O)c(O)c3C(=O)N12,CBMC,NL4-3,M50I/R263K,RT activity,0.0011 µM
CCN(C(=O)[C@H](Cc1cc(F)cc(F)c1)NC(=O)NS(=O)(=O)N[C@@H](Cc1cc(F)cc(F)c1)C(=O)N(CC)c1ccc2scnc2c1)c1ccc2scnc2c1,MT-2,NL4-3,-,luciferase,0.06 µM
Cc1nc2ccc(Cl)cc2c(-c2ccc(Br)cc2)c1C(OC(C)C)C(=O)O,C8166,-,-,luciferase / reporter gene,<20 µM
CNC(=O)c1c(O)c2ncc(Cc3ccc(F)cc3)c3c2n(c1=O)C[C@@](C)(C(=O)OC)O3,MT-2,IIIB,-,ATP / luminescence,0.0227 µM
CN(C)c1ccc(Nc2c3ccc(NC(=O)CCN4CCCC4)cc3nc3cc(NC(=O)CCN4CCCC4)ccc23)cc1,MT-4,IIIB,-,GFP / single cycle,6.2 µM
CCc1ccc(-c2c(C(OC(C)(CF)CF)C(=O)O)c(C)nc3ccc(Cl)cc23)cc1,C8166,-,-,luciferase / reporter gene,<20 µM
CC(C)[C@H](NC(=O)c1ccc2ccccc2n1)C(=O)N[C@@H](Cc1ccccc1)[C@H](O)CN(NC(=O)OC(C)(C)C)C(C)C,MT-2,Clinical isolate strain 237228,-,cytopathic effect / RT activity / trypan blue,<5 µM
CNC(=O)c1c(O)c2ncc(Cc3ccc(F)cc3)c3c2n(c1=O)C[C@H](Cn1ccnc1)O3,MT-2,IIIB,-,ATP / luminescence,0.0012 µM
COc1ccc(N(C)C(=O)[C@H](Cc2ccccc2)NC(=O)CCC(=O)N[C@@H](Cc2ccccc2)C(=O)N(C)c2ccc(OC)cc2)cc1,MT-2,NL4-3,-,luciferase,3.25 µM
Nc1nc(NC2CC2)c2ncn([C@H]3C=C[C@@H](CO)C3)c2n1,MT-2,Clinical isolate,A62V/V75I/F77L/F116L/Q151M/M184V,recombinant virus assay,1.496 µM
CCN(CC)C(=O)[C@@]1(C)Cn2c(=O)c(C(=O)NC)c(O)c3ncc(Cc4ccc(F)cc4)c(c32)O1,MT-2,IIIB,-,ATP / luminescence,0.0079 µM
N=C1Sc2ccccc2C2=NCCCN12,PBMC,92RW016,-,β-galactosidase,0.22 µM
Cc1ncc(-c2ccc(OCCOc3c(F)cccc3Cl)cn2)c(N2CCC(C)(C)CC2)c1[C@H](OC(C)(C)C)C(=O)O,MT-2,NL4-3,-,luminescence,0.0008 µM
CN(C(=O)[C@H](Cc1cc(F)cc(F)c1)NC(=O)NS(=O)(=O)N[C@@H](Cc1cc(F)cc(F)c1)C(=O)N(C)c1ccc(C2CC2)cc1)c1ccc(C2CC2)cc1,MT-2,NL4-3,-,luciferase,0.01 µM
CC(C)C1=C2[C@H]3CC[C@@H]4[C@@]5(C)CC[C@H](OC(=O)[C@H]6C[C@@H](C(=O)O)C6(C)C)C(C)(C)[C@@H]5CC[C@@]4(C)[C@]3(C)CC[C@@]2(CCNC(=O)c2ccncc2)CC1=O,MT-2,92HT599,-,p24 / ELISA,<1 µM
C=C(C)[C@@H]1CC[C@]2(C(=O)NCCCCCCCCC(=O)N[C@H](CCC(N)=O)C(=O)OC)CC[C@]3(C)[C@H](CC[C@@H]4[C@@]5(C)CC[C@H](OC(=O)CC(C)(C)C(=O)O)C(C)(C)[C@@H]5CC[C@]43C)[C@@H]12,-,NL4-3,T371delta,absorbance,0.067 µM
CC(C)CN(C[C@@H](O)[C@H](Cc1ccccc1)NC(=O)O[C@H]1CO[C@H]2OCC[C@H]21)S(=O)(=O)c1ccc2nc(NC3CCN(C4CCCC4)CC3)sc2c1,MT-4,T21055,L10F I47V,reporter gene,308 nM
Cc1ncc(-c2ccc(NCCOc3ccc(Cl)cc3F)cn2)c(N2CCC(C)(C)CC2)c1[C@H](OC(C)(C)C)C(=O)O,MT-2,NL4-3,-,luminescence,0.0063 µM
COc1ccc(N(C)C(=O)[C@H](Cc2ccccc2)NC(=O)NS(=O)(=O)N[C@@H](Cc2ccccc2)c2nc(C)no2)cc1,MT-2,NL4-3,-,luciferase,3.76 µM
CC(C)=CCOc1cc(NC(=S)c2ccoc2C)ccc1Cl,CEM + CEM-SS,NL4-3,RT-V179D,p24,0.008 µM
CC(C)(C#N)CNC(=O)[C@@]1(C)Cn2c(=O)c(C(=O)NC3CC3)c(O)c3ncc(Cc4ccc(F)cc4)c(c32)O1,MT-2,IIIB,-,ATP / luminescence,0.029 µM
CC(O)[C@H](NC(=O)c1ccc2ccccc2n1)C(=O)N[C@@H](Cc1ccccc1)C(O)CN1CC2CCCCC2CN1C(=O)OC(C)(C)C,MT-2,Clinical isolate strain 237228,-,cytopathic effect / RT activity / trypan blue,<1 µM
CC(C)CN(CC(O)CC(=O)N1CSC[C@@H]1C(=O)NC(C)(C)C)S(=O)(=O)c1ccccc1,CEM,IIIB,-,p24,<1 µM
NC(N)=NCCC[C@H](N)C(=O)NC[C@@H]1OC(O[C@H]2[C@@H](O)[C@H](O[C@@H]3[C@@H](O)[C@H](NC(=O)[C@@H](N)CCCN=C(N)N)C[C@H](NC(=O)[C@@H](N)CCCN=C(N)N)[C@H]3O[C@H]3O[C@H](CNC(=O)[C@@H](N)CCCN=C(N)N)[C@@H](O)[C@H](O)[C@H]3NC(=O)[C@@H](N)CCCN=C(N)N)O[C@@H]2CO)[C@H](NC(=O)[C@@H](N)CCCN=C(N)N)[C@@H](O)[C@@H]1O,MT-2,2D,-,p24 / RT activity,2.3 µM
CC(C)C1=C2[C@H]3CC[C@@H]4[C@@]5(C)CC[C@H](OC(=O)[C@H]6C[C@@H](C(=O)O)C6(C)C)C(C)(C)[C@@H]5CC[C@@]4(C)[C@]3(C)CC[C@@]2(CC(=O)NCc2cnn3cccnc23)CC1=O,MT-2,92HT599,-,p24 / ELISA,<1 µM
CCC(=O)c1ccc(F)c([C@@H]2C[C@@H]2NC(=O)Nc2ccc(C#N)cn2)c1O,TZM-bl,LAI,NNRTI-resistant (RT E138A),β-galactosidase / luminescence,0.00132 µM
CC(C)N(C[C@@H](O)[C@H](Cc1ccccc1)NC(=O)[C@H](CC(N)=O)NC(=O)c1ccc2ccccc2n1)NC(=O)c1ccccc1NC(=O)OCc1ccccn1,MT-2,Clinical isolate strain 237228,-,cytopathic effect / RT activity / trypan blue,<0.1 µM
Cc1nc2ccc(Cl)cc2c(-c2ccsc2Cl)c1C(OC(C)C)C(=O)O,C8166,-,-,luciferase / reporter gene,<20 µM
COc1ccc(S(=O)(=O)N(CC2CCCC2)C[C@@H](O)CN(CCc2ccccc2)C(=O)c2cccc(O)c2C)cc1,CEM,IIIB,-,p24,<0.1 µM
CNC(=O)[C@H]1Cn2c(=O)c(C(=O)NCCOC)c(O)c3ncc(Cc4ccc(F)cc4)c(c32)O1,MT-2,IIIB,-,ATP / luminescence,0.012 µM
COc1ccc(N(C)C(=O)[C@H](Cc2cc(F)cc(F)c2)NC(=O)NS(=O)(=O)N[C@@H](Cc2cc(F)cc(F)c2)C(=O)N(C)c2ccc(OC)c(F)c2)cc1F,MT-2,NL4-3,-,luciferase,0.03 µM
O=C(O)CNC(=O)c1ccccc1SSc1ccccc1C(=O)NCC(=O)O,CEM,-,-,XTT,51 µM
CC(C)N(C[C@H](O)[C@H](Cc1ccccc1)NC(=O)[C@H](CC(N)=O)NC(=O)c1ccc2ccccc2n1)NC(=O)NC(C)(C)C,MT-2,Clinical isolate strain 237228,-,cytopathic effect / RT activity / trypan blue,<1 µM
[2H]C([2H])([2H])NC(=O)c1c(O)c2ncc(Cc3ccc(F)cc3)c3c2n(c1=O)C[C@H](CN(CC)CC)O3,MT-2,IIIB,-,ATP / luminescence,0.021 µM
Cc1ncc(-c2ccc(OCCOCc3ccccc3)cn2)c(N2CCC(C)(C)CC2)c1[C@H](OC(C)(C)C)C(=O)O,MT-2,NL4-3,-,luminescence,0.0011 µM
CNC(=O)c1c(O)c2ncc(Cc3ccc(F)cc3)c3c2n(c1=O)C[C@@H](CN1CCN(S(C)(=O)=O)CC1)O3,MT-2,IIIB,-,ATP / luminescence,0.0003 µM
CCOC(C(=O)O)c1c(C)nc2ccc(Cl)cc2c1-c1ccc(Cl)cc1,C8166,-,-,luciferase / reporter gene,<20 µM
Nc1cccc(S(=O)(=O)N(CC(O)CN(NCc2ccccc2)C(=O)c2ccccc2)CC2CCCC2)c1,CEM,IIIB,-,p24,<1 µM
Nc1ccn([C@H]2CC[C@@H](CO)O2)c(=O)n1,-,NL4-3,E151K,β-galactosidase,0.277 µM
CC(C)C1=C2[C@H]3CC[C@@H]4[C@@]5(C)CC[C@H](OC(=O)[C@H]6C[C@@H](C(=O)O)C6(C)C)C(C)(C)[C@@H]5CC[C@@]4(C)[C@]3(C)CC[C@@]2(CCNCc2ccc(CN3CCS(=O)(=O)CC3)cc2)CC1=O,MT-2,92HT599,-,p24 / ELISA,<1 µM
COc1ccc(N(C)C(=O)[C@H](Cc2ccccc2)NC(=O)c2cc(C(=O)O)cc(C(=O)N[C@@H](Cc3ccccc3)C(=O)N(C)c3ccc(OC)cc3)c2)cc1,MT-2,NL4-3,-,luciferase,10.06 µM
COc1ccc(S(=O)(=O)N(CC(C)C)C[C@@H](O)CCN(CC2CCCC2)S(=O)(=O)Cc2cc[nH]c2)cc1,CEM,IIIB,-,p24,<1 µM
Cc1cc(OCCOc2ccc(-c3cnc(C)c([C@H](OC(C)(C)C)C(=O)O)c3N3CCC(C)(C)CC3)cn2)ccc1F,MT-2,NL4-3,-,luminescence,0.0054 µM
CCNC(=O)[C@@]1(C)Cn2c(=O)c(C(=O)NCCOC)c(O)c3ncc(Cc4ccc(F)cc4)c(c32)O1,MT-2,IIIB,-,ATP / luminescence,0.003 µM
Nc1ccn([C@@H]2C=C(F)[C@H](CO)O2)c(=O)n1,PBMC,LAI,-,PCR,<0.92 µM
Cc1nc2ccc(Cl)cc2c(-c2csc3ccccc23)c1C(OC(C)C)C(=O)O,C8166,-,-,luciferase / reporter gene,<20 µM
Cc1ncc(-c2cnc(OCCOc3ccc(F)cc3)c(F)c2)c(N2CCC(C)(C)CC2)c1[C@H](OC(C)(C)C)C(=O)O,MT-2,NL4-3,-,luminescence,0.0009 µM
COc1ccc(N(C)C(=O)[C@H](Cc2cc(F)cc(F)c2)NC(=O)Cn2c(=O)c3ccccc3n(CC(=O)N[C@@H](Cc3cc(F)cc(F)c3)C(=O)N(C)c3ccc(OC)cc3)c2=O)cc1,MT-2,NL4-3,-,luciferase,0.03 µM
NS(=O)(=O)c1ccc(NC(=O)c2ccccc2COc2ccccc2C(=O)Nc2ccc(S(N)(=O)=O)cc2)cc1,CEM,-,-,XTT,>100 µM
Cc1ncc(-c2cnc(OCC3CCC3)c(F)c2)c(N2CCC(C)(C)CC2)c1[C@H](OC(C)(C)C)C(=O)O,MT-2,NL4-3,-,luminescence,0.0037 µM
CC(C)C1=C2[C@H]3CC[C@@H]4[C@@]5(C)CC[C@H](OC(=O)[C@H]6C[C@@H](C(=O)O)C6(C)C)C(C)(C)[C@@H]5CC[C@@]4(C)[C@]3(C)CC[C@@]2([C@@H](O)CNC[C@@H](CN)C(C)C)CC1=O,MT-2,92HT599,-,p24 / ELISA,<1 µM
NS(=O)(=O)c1ccc(NC(=O)c2cccc(SSc3cccc(C(=O)Nc4ccc(S(N)(=O)=O)cc4)c3)c2)cc1,CEM,-,-,XTT,>100 µM

ECn: concentration that inhibits the pathogen or its effect by n%. An empty or dashed field is not shown.